Holding throughout (format): cell-based
Series [1] concerns SHIV 89.6pd. Description: PBMC antiviral assay (RT activity). The conditions noted are these: therapeutic index. As for the experimental part: (§1) Human immunodeficiency virus type 1 (HIV-1) strain RoJo is a low passage pediatric isolate derived in the laboratories of Southern Research Institute (SRI). The SHIV89.6pd was obtained from Mark Lewis at SRI and stocks grown in human PBMCs for antiviral testing.
(§2) Peripheral blood monocular cells (PBMCs) were obtained from normal hepatitis and HIV-1 negative donors by ficoll hypaque gradient separation. Briefly, anti-coagulated blood was diluted 1:1 with Dulbecco's phosphate buffered saline without Ca^++ and Mg^++ (PBS) and layered over 14 mL of Lymphocyte separation media in a 50 ml centrifuge tube. Tubes were then centrifuged for 30 minutes at 600×g. Banded PBLs were gently aspirated from the resulting interface and subsequently washed 2× with PBS by low speed centrifugation. The mononuclear cells were counted, viability determined by Trypan Blue dye exclusion and resuspended in RPMI 1640 medium supplemented with 15% FBS (heat inactivated), 2 mM L-glutamine, 100 U/mL penicillin, 100 µg/mL streptomycin, and 10 µg/mL gentamycin with 2 µg/mL phytohemagluttin (PHA) at 1×10^6 cells/mL. The cells were cultured for 48 to 72 h at 37° C., 5% CO2. Following incubation, cells were collected by centrifugation, washed and resuspended in RPMI 1640 supplemented with 15% FBS (heat inactivated), 2 mM L-glutamine, 100 U/mL penicillin, 100 µg/mL streptomycin, and 10 µg/mL gentamycin with 20 U/mL recombinant IL-2 (R & D Systems, Minneapolis, Minn.). IL-2 was included in the culture medium to maintain the cell division initiated by the PHA mitogenic stimulation. The cells were cultured in IL-2 for 72 hours and then used for viral challenge.
(§3) Human peripheral blood mononuclear cells from a minimum of 2 donors, that have been blasted with PHA and IL-2, were counted, viability determined by Trypan Blue dye exclusion and mixed in equal ratios. Pooled donors were used to minimize the variability observed between individual donors which results from quantitative and qualitative differences in HIV infection and overall response to the PHA and IL-2 of primary lymphocyte populations. The cells were resuspended at 1×10^6 cells/mL in RPMI 1640 without phenol red supplemented with 15% Fetal Bovine Serum (heat inactivated), 2 mM L-glutamine, 100 U/mL penicillin, 100 μg/mL streptomycin, 10 μg/mL gentamycin and IL-2 (20 U/mL, R&D Systems, Minneapolis, Minn.). […] The assay was incubated for 6 days in a humidified atmosphere at 37° C., 5% CO2, after which supernatants were collected, for analysis of RT activity and sister plates analyzed for cell viability by MTS dye reduction. […]
(§4) Reverse transcriptase activity was measured in cell-free supernatants. […]

Series [2] deals with HIV-1 RoJo. Kind of series: PBMC antiviral assay (RT activity). To be noted: therapeutic index. As for the experimental part: as §1, §2, §3, §4
The test system of series [3] is SK1 clinical isolate of HIV-1. Kind of series: CD4-dependent HIV transmission inhibition assay (H9/SK-1 to GHOST(3) X4/R5 cells, cell-associated p24).
The test system of series [4] is SK1 clinical isolate of HIV-1. Kind of series: CD4-independent HIV transmission inhibition assay (H9-SK1 to ME180 cells, p24 ELISA). A general note: In an ELISA, binding on a coated surface is turned into a signal by an enzyme label.
Setting [5] is: TC50/IC50, Exp. 1, without mucin.
Where [6] appears, read: TC50/IC50, Exp. 2, without mucin.

Where only a bound is given, the exact number is not on record here.

`Cc1cn([C@H]2C[C@H](N=[N+]=[N-])[C@@H](CO)O2)c(=O)[nH]c1=O` [AZT]: the “SHIV 89.6pd Infected PBMCs TI” value in series [1] is more than 500. Further, the “HIV-1 RoJo Infected PBMCs TI” value in series [2] is listed as more than 200.
As to Dextran sulfate [reference compound], the “CD4-Dependent Transmission Assay TI” value in series [3] (setting [5]) was more than 316; in series [3] (TC50/IC50, Exp. 2, with mucin), more than 316; in series [3] (setting [6]) it was more than 316. Also, the “CD4-Independent Transmission Assay TI” value in series [4] (TC50/IC50, Exp. 2, with mucin) is reported as more than 309; in series [4] (setting [6]) it was more than 46.
As to “BHAlyslys2lys4lys8lys16[NH—CO—CH2)O-3,6-Naphthyl-(SO3Na)2]32 [SPL-7013]”, the “CD4-Dependent Transmission Assay TI” value in series [3] (setting [5]) is listed as more than 132; in series [3] (TC50/IC50, Exp. 2, with mucin) it was more than 205; in series [3] (setting [6]), more than 256. Moreover, in series [1], the “SHIV 89.6pd Infected PBMCs TI” value is given as more than 400. Besides, in series [2], the “HIV-1 RoJo Infected PBMCs TI” value is more than 16. Further, the “CD4-Independent Transmission Assay TI” value is recorded as more than 90.9 in series [4] (TC50/IC50, Exp. 2, with mucin) and more than 3.5 in series [4] (setting [6]).

Source of the values: US8158575B2, “Agent for the prevention and treatment of sexually transmitted diseases-I” (priority 2001, dated 2012).
